A mixed list of measured activities; the numbers were collected in NIAID ChemDB.

Common to all: growth or infection tests; agent: Candida albicans

A number after MIC or MFC names an inhibition level or a share of isolates.

smiles,strain or isolate,changes,read by,read-out,dose,result
Clc1ccc(COc2ccc(C(c3ccc(-c4ccccc4)cc3)n3ccnc3)cc2)cc1.O=[N+]([O-])O,16 strains,-,-,Mean MIC,-,≥256 µg/mL
COc1ccc(C(Cc2cccc(N)c2)n2ccnc2)cc1,34 strains,-,-,Geometric mean MIC,-,>256 µg/mL
Clc1ccc(COc2ccc(C(c3ccc4ccccc4c3)n3ccnc3)cc2)cc1.O=[N+]([O-])O,16 strains,-,-,Mean MIC,-,≥256 µg/mL
O=C(Nc1ccc(Cn2ccnc2)cc1)c1cc([N+](=O)[O-])cc([N+](=O)[O-])c1,27 strains,-,-,Mean MIC,-,126 µg/mL
Fc1ccc(COc2ccc(C(c3nccc4ccccc34)n3ccnc3)cc2)c(F)c1,17 strains,-,-,Mean MIC,-,≥256 µg/mL
OC(CN1CCN(c2ccc(OCc3ccncc3)cc2)CC1)(Cn1cncn1)c1ccc(F)cc1F,1,-,-,MIC80,-,≤0.031 µg/mL
Cc1c(CNc2ccccc2)cc(-c2ccc(Cl)cc2)n1-c1ccc(Cl)cc1Cl,20 strains,-,-,Mean MIC,-,>200 µg/mL
Clc1ccccc1COc1ccc(C(c2ccc3ccccc3c2)n2ccnc2)cc1.O=[N+]([O-])O,16 strains,-,-,Mean MIC,-,≥256 µg/mL
CC(C)(O)c1cn(-c2ccc([N+](=O)[O-])cc2)nn1,URM 4260,-,broth dilution,inhibition,2048 µg/mL,0%
Cc1c(CN2CCCC2)cc(-c2ccc(Cl)cc2)n1-c1ccccc1,20 strains,-,-,Mean MIC,-,61.7 µg/mL
O=C(Nc1cccc(Cn2ccnc2)c1)c1ccc(Cl)cc1Cl,27 strains,-,-,Mean MIC,-,119 µg/mL
Cc1c(CN(C)C)cc(-c2ccccc2)n1-c1ccccc1,20 strains,-,-,Mean MIC,-,69.8 µg/mL
CC(C)(O)c1cn(-c2ccc3ccccc3c2)nn1,URM 4124,-,broth dilution,inhibition,2048 µg/mL,0%
Clc1cccc(C=Nc2cccc(Cn3ccnc3)c2)c1,27 strains,-,-,Mean MIC,-,88.56 µg/mL
O[C@](Cn1cncn1)(Cn1cnc(/C=C/c2ccc(OCC(F)(F)C(F)F)cc2)n1)c1ccc(F)cc1F,-,-,-,Mean MIC50,-,0.11 µg/mL
CC(=O)OC[C@H]1O[C@@H](O[C@@H]2[C@@H](N=[N+]=[N-])[C@H](O)[C@H](O)[C@H]3OC(C)(C)O[C@H]32)[C@H](OC(C)=O)[C@@H](OC(C)=O)[C@H]1OC(C)=O,ATCC 10231,-,broth dilution / turbidity,inhibition,125 µg/mL,68.42%
CCC(C)n1ncn(-c2ccc(N3CCN(c4ccc(OC[C@H]5CO[C@](Cn6cncn6)(c6ccc(Cl)cc6Cl)O5)cc4)CC3)cc2)c1=O,Fluconazole-resistant 4 isolates pooled,-,-,MFC50,-,>8 µg/mL
Oc1ccc2c(c1)CCc1ccc(O)c(c1)Oc1ccc(cc1)CCc1cccc(O)c1O2,YEM30,-,broth dilution,MIC80,-,16 µg/mL
COc1ccc(C(Cc2ccc(F)cc2)n2ccnc2)cc1,34 strains,-,-,Geometric mean MIC,-,66.66 µg/mL
CC[C@@H]([C@H](C)O)n1ncn(-c2ccc(N3CCN(c4ccc(OC[C@@H]5CO[C@@](Cn6cncn6)(c6ccc(F)cc6F)C5)cc4)CC3)cc2)c1=O,13 isolates fluconazole-resistant,-,-,Geometric mean MIC,-,1.45 µg/mL
O=C(Nc1cccc(Cn2ccnc2)c1)c1ccc(Cl)cc1[N+](=O)[O-],27 strains,-,-,Mean MIC,-,117 µg/mL
COc1ccc(C(Cc2ccc(Cl)cc2)n2ccnc2)cc1,34 strains,-,-,Geometric mean MIC,-,14.62 µg/mL
Fc1ccc(COc2ccc(C(c3cccc4ccccc34)n3ccnc3)cc2)c(F)c1.O=[N+]([O-])O,16 strains,-,-,Mean MIC,-,≥256 µg/mL
O=C(Nc1ccccc1Cn1ccnc1)c1ccc(Cl)cc1Cl,27 strains,-,-,Mean MIC,-,123 µg/mL
Cc1cc(CN(C)C)c(C)n1-c1ccc(Cl)cc1,20 strains,-,-,Mean MIC,-,200 µg/mL
O=[N+]([O-])c1ccc(CNc2cccc(Cn3ccnc3)c2)cc1,27 strains,-,-,Mean MIC,-,125 µg/mL
C[C@H]1[C@H](O)[C@@H](C)/C=C/C=C/C=C/C=C/C=C/C=C/C=C/[C@H](O[C@@H]2O[C@H](C)[C@@H](O)[C@H](N)[C@@H]2O)C[C@@H]2O[C@](O)(C[C@@H](O)C[C@@H](O)CC[C@H](O)[C@@H](O)C[C@@H](O)CC(=O)O[C@H]1C)C[C@H](O)[C@H]2C(=O)O,ATCC 90028,cph1/efg1,broth dilution,inhibition,1 µg/mL,100%
CC(=O)Nc1ccc(CNc2cccc(Cn3ccnc3)c2)cc1,27 strains,-,-,Mean MIC,-,125 µg/mL
C=CCc1ccc(OC)c(OC)c1,3078,-,turbidity,MIC90,-,345 µg/mL
Cc1c(CN2CCN(C)CC2)cc(-c2ccccc2)n1-c1ccc(F)cc1,20 strains,-,-,Mean MIC,-,168 µg/mL
Fc1ccc(COc2ccc(C(c3ccc(-c4ccccc4)cc3)n3ccnc3)cc2)c(F)c1.O=[N+]([O-])O,17 strains,-,-,MIC90,-,≥256 µg/mL
COc1ccc(C(Cc2cccc(Cl)c2)n2ccnc2)cc1,34 strains,-,-,Geometric mean MIC,-,108 µg/mL
CC(C)(O)c1cn(-c2cccc3ccccc23)nn1,URM 4986,-,broth dilution,inhibition,2048 µg/mL,0%
CCC(C)n1ncn(-c2ccc(N3CCN(c4ccc(OC[C@H]5CO[C@](Cn6cncn6)(c6ccc(Cl)cc6Cl)O5)cc4)CC3)cc2)c1=O,A28235,-,-,MFC99,-,>16 µg/mL
Fc1ccc(COc2ccc(C(c3ccc4ccccc4c3)n3ccnc3)cc2)cc1.O=[N+]([O-])O,17 strains,-,-,MIC90,-,≥256 µg/mL
COc1ccc(C(Cc2ccc(-n3cccc3)cc2)n2ccnc2)cc1,34 strains,-,-,Geometric mean MIC,-,>256 µg/mL
CC(C)N=C(N)c1ccc2nc(-c3ccc4c(c3)Cc3cc(-c5nc6ccc(C(N)=NC(C)C)cc6[nH]5)ccc3-4)[nH]c2c1,21 strains,-,-,Geometric mean MIC,-,1.56 µg/mL
O=C(Nc1ccc(Cn2ccnc2)cc1)c1ccccc1Cl,27 strains,-,-,Mean MIC,-,150 µg/mL
COc1ccc([C@@H](Cc2ccc(Cl)cc2Cl)n2ccnc2)cc1,34 strains,-,-,Geometric mean MIC,-,5.66 µg/mL
Cc1c(CN(C)C)cc(-c2ccccc2)n1-c1ccc(Cl)cc1Cl,20 strains,-,-,Mean MIC,-,16.3 µg/mL
Cc1ccc(-n2cc(C(C)(C)O)nn2)cc1C,URM 3716,-,broth dilution,inhibition,2048 µg/mL,0%
Cc1ccc(C(C)C)cc1,ATCC 10231,-,-,MLC,-,>10 µg/mL
Cc1ccc(C(C)C)cc1,ATCC 10231,-,-,MLC,-,0.16–0.32 µg/mL

The last 4 rows once more:

smiles | strain or isolate | changes | read by | read-out | dose | result
Cc1c(CN(C)C)cc(-c2ccccc2)n1-c1ccc(Cl)cc1Cl | 20 strains | - | - | Mean MIC | - | 16.3 µg/mL
Cc1ccc(-n2cc(C(C)(C)O)nn2)cc1C | URM 3716 | - | broth dilution | inhibition | 2048 µg/mL | 0%
Cc1ccc(C(C)C)cc1 | ATCC 10231 | - | - | MLC | - | >10 µg/mL
Cc1ccc(C(C)C)cc1 | ATCC 10231 | - | - | MLC | - | 0.16–0.32 µg/mL

Blank or dashed fields: not listed here. Conditions beyond the fields shown may differ between rows. Two numbers with a dash give a range or band. Percent inhibition refers to the dose given; in toxicity tests it is the harm to the cells.